Anti-infective test results gathered from many reports (values: NIAID ChemDB through PubChem).

Common to all: whole-cell or culture tests

Neighbouring rows are from separate reports. ECn: concentration that inhibits the pathogen or its effect by n%. Percent inhibition refers to the dose given; in toxicity tests it is the harm to the cells. MIC50, MIC90 and the like: level of inhibition, or share of isolates inhibited. Blank or dashed fields: not listed here.

SMILES	agent	cells	read by	changes	measure	strain or isolate	dose	value
C[C@H]1COc2c(N3CCN(C)CC3)c(F)cc3c(=O)c(C(=O)O)cn1c23	Staphylococcus aureus	-	-	-	MIC90	25 strains (ofloxacin-resistant)	-	64 µg/mL
CCO/N=C/c1ccc(OCCC2CCN(c3ccc(C)nn3)CC2)cc1	Rhinovirus	KB	neutral red	-	EC50	209 (ICAM-1 receptor group 39)	-	0.001 µM
C[C@@H]1CN(c2c(F)c(N)c3c(=O)c(C(=O)O)cn(C4CC4)c3c2F)C[C@H](C)N1	Staphylococcus aureus	-	-	-	MIC50	25 strains (methicillin-susceptible)	-	0.12 µg/mL
CN(C)c1cc(NC(=O)CNC(C)(C)C)c(O)c2c1C[C@H]1C[C@H]3[C@H](N(C)C)C(=O)C(C(N)=O)=C(O)[C@@]3(O)C(=O)C1=C2O	Mycobacterium massiliense	-	broth dilution	-	MIC	X7	-	1 µg/mL
CC1COc2c(N3CCN(C)CC3)c(F)cc3c(=O)c(C(=O)O)cn1c23	Staphylococcus aureus	-	-	-	MIC50	20 strains (oxacillin-susceptible)	-	0.25 µg/mL
Nc1ncnc2c1ncn2C[C@H](CO)OCP(=O)(O)O	Adenovirus	-	cytopathic effect	-	EC50	WT 300 (TYPE 5)	-	7 µg/mL
CCOC(=O)Nc1cc2[nH]c(-c3ccc(OC)cc3)nc2c(NC(c2ccccc2)c2ccccc2)n1	Encephalitozoon intestinalis	RK-13	-	-	inhibition	-	0.1 µg/mL	20.9%
CC[C@H]1OC(=O)[C@H](C)[C@@H](O[C@H]2C[C@@](C)(OC)[C@@H](O)[C@H](C)O2)[C@H](C)[C@@H](O[C@@H]2O[C@H](C)C[C@H](N(C)C)[C@H]2O)[C@](C)(OC)C[C@@H](C)C(=O)[C@H](C)[C@@H](O)[C@]1(C)O	Mycobacterium abscessus	-	broth dilution	-	MIC	T45	-	4 µg/mL
CO[C@H]1[C@@H](OC(=O)/C=C/C=C/C=C/C=C/C(=O)O)CC[C@@]2(CO2)[C@@H]1[C@@]1(C)O[C@@H]1CC=C(C)C	Encephalitozoon intestinalis	RK-13	-	-	inhibition	-	0.1 µg/mL	85.4%
C#CC[C@@H](C(=O)N[C@H](/C=C/C(=O)OCC)C[C@@H]1CCNC1=O)n1cccc(NC(=O)c2cc(C)on2)c1=O	Rhinovirus	H1-HELA	cytopathic effect / XTT	-	inhibition	Serotype 2	0.077 µM	90%
C[C@@H](O)[C@H]1C(=O)N2C(C(=O)O)=C(SCCN=CN)C[C@H]12	Staphylococcus aureus	-	-	-	MIC90	24 strains (ofloxacin-susceptible)	-	32 µg/mL
Nc1ccn([C@@H]2C[C@H](CO)[C@@H](O)[C@H]2O)c(=O)n1	Vesicular stomatitis virus	CV-1	cytopathic effect	-	EC50	-	-	2 µg/mL
CCCCCCCCCCCCCCCCCCCCCCOCC(C)(COCCCCCCCCCCCCCCCCCCCCCC)CO[C@]1(C(=O)O)C[C@H](OS(=O)(=O)O)[C@@H](NC(C)=O)[C@H]([C@H](OS(=O)(=O)O)[C@@H](COS(=O)(=O)O)OS(=O)(=O)O)O1	Respiratory syncytial virus	HEP-2	plaque count	-	EC50	K656	-	0.3 µM
CCCSc1ccc2nc(NC(=O)OC)[nH]c2c1	Encephalitozoon intestinalis	RK-13	-	-	inhibition	-	1 µg/mL	87.4%
CN(C)[C@@H]1C(=O)C(C(N)=O)=C(O)[C@@]2(O)C(=O)C3=C(O)c4c(O)c(NC(=O)CN5CCOCC5)cc(F)c4C[C@H]3C[C@@H]12	Streptococcus pneumoniae	-	agar diffusion	-	MIC	106-49619	-	0.5 µg/mL
NC(N)=NS(=O)(=O)c1ccc(N)cc1	Encephalitozoon cuniculi	MRC-5 fibroblasts	cytopathic effect	-	inhibition	-	50 µg/mL	0%
CC[C@]1(O)C[C@H]2CN(CCc3c([nH]c4ccccc34)[C@@](C(=O)OC)(c3cc4c(cc3OC)N(C)[C@H]3[C@@](O)(C(=O)OC)[C@H](OC(C)=O)[C@]5(CC)C=CCN6CC[C@]43[C@@H]65)C2)C1	Encephalitozoon intestinalis	RK-13	-	-	inhibition	-	0.01 µg/mL	54.3%
COc1c(N2CCNC(C)C2)c(F)cc2c(=O)c(C(=O)O)cn(C3CC3)c12	Haemophilus influenzae	-	-	-	MIC50	38 strains (ampicillin-susceptible)	-	0.008 µg/mL
CN(C)c1ccc(O)c2c1C[C@H]1C[C@H]3[C@H](N(C)C)C(=O)C(C(N)=O)=C(O)[C@@]3(O)C(=O)C1=C2O	Encephalitozoon cuniculi	MRC-5 fibroblasts	cytopathic effect	-	inhibition	-	20 µg/mL	35%
COc1cc(C[C@H](C)[C@H](C)Cc2ccc(O)c(O)c2)ccc1O	Candida glabrata	-	broth dilution	-	MIC50	CCC 115-2000	-	62.5 µg/mL
CC1(C)[C@@H](O[C@H]2O[C@H](C(=O)O)[C@@H](O)[C@H](O)[C@H]2O[C@@H]2O[C@H](C(=O)O)[C@@H](O)[C@H](O)[C@H]2O)CC[C@]2(C)[C@H]3C(=O)C=C4[C@@H]5C[C@@](C)(C(=O)O)CC[C@]5(C)CC[C@@]4(C)[C@]3(C)CC[C@@H]12	West Nile virus	VERO	cytopathic effect	-	EC50	E101	-	228.9 µg/mL
Nc1ccn(C[C@@H](CO)OCP(=O)(O)O)c(=O)n1	Adenovirus	-	virus yield	-	EC90	13306 (TYPE 8)	-	0.2 µg/mL
OC(Cn1cncn1)(Cn1cncn1)c1ccc(F)cc1F	Candida albicans	-	broth dilution	-	MIC	YL 360	-	256 µg/mL
Nc1nc2c(ncn2CCOCP(=O)(O)O)c(=O)[nH]1	Measles virus	-	neutral red	-	EC50	Chicago	-	<0.03 µg/mL
Cc1ccnc2c1NC(=O)c1cccnc1N2C1CC1	HIV-1	MT-4	-	RT-L74V	EC95	-	-	0.1 µM
CC1(C)S[C@@H]2[C@H](NC(=O)[C@H](N)c3ccccc3)C(=O)N2[C@H]1C(=O)O	Haemophilus influenzae	-	-	-	MIC90	38 strains (ampicillin-susceptible)	-	1 µg/mL
CO[C@H]1/C=C/O[C@@]2(C)Oc3c(C)c(O)c4c(O)c(c5c(c4c3C2=O)NC2(CCN(CC(C)C)CC2)N=5)=NC(=O)/C(C)=C\C=C\[C@H](C)[C@H](O)[C@@H](C)[C@@H](O)[C@@H](C)[C@H](OC(C)=O)[C@@H]1C	Encephalitozoon cuniculi	MRC-5 fibroblasts	cytopathic effect	-	inhibition	-	20 µg/mL	22%
COc1cc2oc(=O)ccc2cc1CC(O)C(C)(C)O	Pseudomonas aeruginosa	-	-	-	MIC	-	-	125 µg/mL
NC[C@@H]1O[C@H](O[C@H]2[C@@H](O)[C@H](O[C@@H]3[C@@H](O)[C@H](N)C[C@H](N)[C@H]3O[C@H]3O[C@H](CO)[C@@H](O)[C@H](O)[C@H]3N)O[C@@H]2CO)[C@H](N)[C@@H](O)[C@@H]1O	Encephalitozoon cuniculi	MRC-5 fibroblasts	cytopathic effect	-	inhibition	-	100 µg/mL	0%
CCOC(=O)Nc1cc2c(cn1)N=C(c1ccccc1)[C@H](C)N2	Encephalitozoon intestinalis	RK-13	-	-	inhibition	-	0.01 µg/mL	71.9%
O=C1C(=O)c2ccccc2C(O)=C1C1CCC(c2ccc(Cl)cc2)CC1	Encephalitozoon cuniculi	MRC-5 fibroblasts	cytopathic effect	-	inhibition	-	1 µg/mL	0%
CO/N=C1\CN(c2nc3c(cc2F)c(=O)c(C(=O)O)cn3C2CC2)CC1CN	Staphylococcus aureus	-	-	-	MIC90	24 strains (ofloxacin-susceptible)	-	0.06 µg/mL

A second listing of 4 rows from above:

Nc1ccn([C@@H]2C[C@H](CO)[C@@H](O)[C@H]2O)c(=O)n1 ; agent: Vesicular stomatitis virus ; cells: CV-1 ; read by: cytopathic effect ; measure: EC50 ; value: 2 µg/mL
C[C@H]1COc2c(N3CCN(C)CC3)c(F)cc3c(=O)c(C(=O)O)cn1c23 ; agent: Staphylococcus aureus ; measure: MIC90 ; strain or isolate: 25 strains (ofloxacin-resistant) ; value: 64 µg/mL
CCCSc1ccc2nc(NC(=O)OC)[nH]c2c1 ; agent: Encephalitozoon intestinalis ; cells: RK-13 ; measure: inhibition ; dose: 1 µg/mL ; value: 87.4%
OC(Cn1cncn1)(Cn1cncn1)c1ccc(F)cc1F ; agent: Candida albicans ; read by: broth dilution ; measure: MIC ; strain or isolate: YL 360 ; value: 256 µg/mL